Measured values from several laboratories, pooled; numbers as filed in NIAID ChemDB.

Shared fields: growth or infection tests; organism: HIV-1; cell line: MT-4; method: MTT; read-out: EC50

Blank or dashed fields: not listed here.

smiles | strain | mutations | setting | value
CCc1c(Cc2cc(C)cc(C)c2)n(COCC#Cc2ccc(NC(=O)C(F)(F)F)cc2)c(=O)[nH]c1=O | IIIB | K103N + Y181C |  | 1.6 µM
C=CCNC(=O)CSc1cnc(Nc2ccc(C#N)cc2)nc1Oc1c(C)cc(C#N)cc1C |  | RES056 |  | 0.1717 µM
CCc1c(Cc2cc(C)cc(C)c2)n(COCC#Cc2ccccc2)c(=O)[nH]c1=O | IIIB | Y181C |  | 2 µM
Cc1ccc(-c2c(C)c3c(c(C)c2[C@H](OC(C)(C)C)C(=O)O)N(S(C)(=O)=O)Cc2cc(F)ccc2-3)cc1 |  |  |  | 0.057 µM
CCc1c(Cc2cc(C)cc(C)c2)n(COCC#Cc2cc3ccccc3c3ccccc23)c(=O)[nH]c1=O | IIIB | Y181C |  | >80 µM
Cc1cc(C#N)cc(C)c1Oc1nc(Nc2ccc(C#N)cc2)ncc1SCC(=O)NCCN1CCOCC1 |  | E138K |  | 0.0238 µM
COC(=O)N[C@H](C(=O)N[C@@H](Cc1ccccc1)C[C@H](O)[C@H](Cc1ccc(-c2ccc(C(C)=O)cc2)cc1)NC[C@@H](NC(=O)OC)C(C)(C)C)C(C)(C)C | pNL4-3 |  | 50% human serum | 3 nM
Cc1cc(C#N)cc(C)c1Oc1nc(Nc2ccc(C#N)cc2)ncc1SCC(=O)NCC1CCCO1 |  | L100I |  | 0.0449 µM
Cc1ccc(-c2c(C)c3c(c(C)c2[C@H](OC(C)(C)C)C(=O)O)N(S(C)(=O)=O)Cc2c(F)cccc2-3)cc1 |  |  |  | 0.001 µM
Cc1ccc(S(=O)(=O)NC(C)c2nnc(Nc3ccc(F)cc3)s2)cc1 | IIIB |  |  | >71.85 µM
Cc1cc(C#N)cc(C)c1Oc1nc(Nc2ccc(C#N)cc2)ncc1SCC(=O)Nc1ccc(S(C)(=O)=O)cc1 |  | F227L V106A |  | 0.3592 µM
Cc1ccc(S(=O)(=O)NC(C)c2nnc(Nc3ccc(Br)cc3)s2)cc1 | IIIB |  |  | >8.09 µM
COC(=O)N[C@H](C(=O)N[C@@H](Cc1ccccc1)C[C@H](O)[C@H](Cc1ccc(-c2ccc(N)cc2)cc1)NC[C@@H](NC(=O)OC)C(C)(C)C)C(C)(C)C | pNL4-3 |  |  | 6 nM
Cc1cc(C#N)cc(C)c1Oc1nc(Nc2ccc(C#N)cc2)ncc1SCC(=O)NC1CCN(C(=O)OC(C)(C)C)CC1 |  | E138K |  | 0.0488 µM
CCc1c(Cc2cc(C)cc(C)c2)n(COCC#Cc2ccc(O[Si](c3ccccc3)(c3ccccc3)C(C)(C)C)cc2)c(=O)[nH]c1=O | IIIB | K103N + Y181C |  | >100 µM
C=C(CC[C@](C)(O)[C@H]1C(=O)C[C@H]2[C@@H]3C(=O)C=C4[C@@H](O)[C@@H](O)CC[C@]4(C)[C@H]3CC[C@@]21C)C(C)C | NL4-3 |  |  | 0.54 µM
COc1ccc(S(=O)(=O)NC(c2nnc(Nc3ccc(F)cc3)s2)C(C)C)cc1 | IIIB |  |  | >9.34 µM
CNC(=O)c1ccc(-c2ccc(C[C@H](NC[C@@H](NC(=O)OC)C(C)(C)C)[C@@H](O)C[C@H](Cc3ccccc3)NC(=O)[C@@H](NC(=O)OC)C(C)(C)C)cc2)cc1 | pNL4-3 |  |  | 4 nM
CC(C)[C@H](C)CC[C@](C)(O)[C@H]1C(=O)C[C@H]2[C@@H]3C(=O)C=C4C[C@@H](O)CC[C@]4(C)[C@H]3CC[C@@]21C | NL4-3 | IN E92Q INI-resistant |  | 0.1029 µM
COC(=O)N[C@H](C(=O)N[C@@H](Cc1ccccc1)C[C@H](O)[C@H](Cc1ccc(-c2ccc(O)cc2)cc1)NC[C@@H](NC(=O)OC)C(C)(C)C)C(C)(C)C | pNL4-3 |  |  | 13 nM
Cc1cc(C#N)cc(C)c1Oc1nc(Nc2ccc(C#N)cc2)ncc1SCC(=O)NCCN1CCN(C(=O)OC(C)(C)C)CC1 |  | Y188L |  | 0.2264 µM
COC(=O)N[C@H](C(=O)N[C@@H](Cc1ccccc1)C[C@H](O)[C@H](Cc1ccc(-c2ccc(OC)cc2)cc1)NC[C@@H](NC(=O)OC)C(C)(C)C)C(C)(C)C | pNL4-3 |  | 50% human serum | 3 nM
CCc1c(Cc2cc(C)cc(C)c2)n(COC/C(Br)=C(\Br)c2ccccc2)c(=O)[nH]c1=O | IIIB | WT |  | 0.07 µM
Cc1cc(C#N)cc(C)c1Oc1nc(Nc2ccc(C#N)cc2)ncc1SCC(=O)NCCCN1CCOCC1 |  | RES056 |  | 0.3452 µM
COC(=O)N[C@H](C(=O)N[C@@H](Cc1ccccc1)C[C@H](O)[C@H](Cc1ccc(-c2cncnc2)cc1)NC[C@@H](NC(=O)OC)C(C)(C)C)C(C)(C)C | pNL4-3 |  |  | 2 nM
Cc1cc(C#N)cc(C)c1Oc1nc(Nc2ccc(C#N)cc2)ncc1SCC(N)=O |  | E138K |  | 0.0209 µM
CCc1c(Cc2cc(C)cc(C)c2)n(COCC#Cc2ccc(CO[Si](c3ccccc3)(c3ccccc3)C(C)(C)C)cc2)c(=O)[nH]c1=O | IIIB | WT |  | 1.4 µM
Cc1ccc(S(=O)(=O)NC(c2nnc(Nc3ccc(Br)cc3)s2)C(C)C)cc1 | IIIB |  |  | >6.49 µM
Cc1cc(C#N)cc(C)c1Oc1nc(Nc2ccc(C#N)cc2)ncc1SCC(=O)NC1CC1 |  | E138K |  | 0.0102 µM
CCc1c(Cc2cc(C)cc(C)c2)n(COCC#Cc2cccc(C=O)c2)c(=O)[nH]c1=O | IIIB | WT |  | 0.02 µM
CC(C)C(NS(=O)(=O)c1ccc(Br)cc1)c1nnc(Nc2ccc(Br)cc2)s1 | IIIB |  |  | >2.31 µM

ECn: concentration that inhibits the pathogen or its effect by n%. Rows are shuffled and stem from different studies.